# Potato spindle tuber viroid, loop 6: variant abundance in plants

Source: Wu et al. 2024 (doi:10.1371/journal.ppat.1012142), supplementary data.

Region: loop 6 of PSTVd (intermediate strain), upper and lower strand joined, each 5' to 3', the first 5 letters being the upper strand, closing pairs included. Wild type: UGACCGCGAG. Varied positions (N): UNNNCGNNNG.

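A pool of all variants was put on leaves of three Nicotiana benthamiana plants. Samples came from the inoculated region at 5 days, the leaf margin at 10 and upper systemic leaves at 12.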

Numbers give reads per thousand; 0 = not seen among the reads, higher = more abundant.
Each value is the mean of three plants.
"Pool" is the share in the plasmid pool used as inoculum, on the same scale.
The inoculated region was read from the minus strand, the other sites from the plus strand.
IR is the inoculated region, LM the leaf margin, Sys the systemic leaves.
Sequences that differ at fixed positions probably stem from PCR or sequencing errors, and defective variants can be carried along by functional ones.
With 36,220-57,551 reads a sample, very low values are single reads.
For reference, wild type rose from 20.7 per thousand in the pool to 195, 198, 203 (inoculated region), 629, 591, 734 (leaf margin) and 942, 870, 868 (systemic leaves).

- UUGACGAUAG (pool 0.222): IR 0.100; LM 0.0711; Sys 0
- UGUCCGGGAG (pool 0.235): IR 0.106; LM 0.00920; Sys 0
- UUGGCGACCG (pool 0.235): IR 0.102; LM 0; Sys 0
- UUUCCGAGUG (pool 0.248): IR 0.131; LM 0.0464; Sys 0
- UUUCCGGGUG (pool 0.131): IR 0.119; LM 0.0401; Sys 0
- UUCCUGAGCG (pool 0.0131): IR 0; LM 0; Sys 0
- UAUACGUCGG (pool 0.275): IR 0.102; LM 0.0261; Sys 0
- UUCGCGCGCG (pool 0.183): IR 0.0897; LM 0; Sys 0
- UAAACGAGCG (pool 0.131): IR 0.544; LM 0.0782; Sys 0.0468
- UCUGCGAAGG (pool 0.209): IR 0.0654; LM 0; Sys 0
- UGGACGAAGG (pool 0.183): IR 0.113; LM 0.0155; Sys 0
- UCGCCGCAUG (pool 0.209): IR 0.0769; LM 0.0261; Sys 0
- UAACCGUGGG (pool 0.170): IR 0.0764; LM 0; Sys 0
- UUAUCGGGGG (pool 0.118): IR 0.0782; LM 0; Sys 0
- UUCCCGGACG (pool 0.144): IR 0.0893; LM 0; Sys 0
- UACGCGCUAG (pool 0.0784): IR 0.117; LM 0.00773; Sys 0
- UUCUCGGAAG (pool 0.131): IR 0.113; LM 0; Sys 0
- UGCACGACUG (pool 0.327): IR 0.0835; LM 0; Sys 0
- UGUCCGACGG (pool 0.261): IR 0.102; LM 0.0155; Sys 0
- UGUGCGGAGU (pool 0.0131): IR 0; LM 0; Sys 0
- UCUGCGGUUG (pool 0.353): IR 0.119; LM 0; Sys 0
- UCUCCGCAGG (pool 0.196): IR 0.113; LM 0; Sys 0
- UAGCCGCCAG (pool 0.222): IR 0.143; LM 0.0444; Sys 0.00684
- UCCGCGCCAG (pool 0.183): IR 0.124; LM 0.00773; Sys 0
- UACGCGUUGG (pool 0.183): IR 0.107; LM 0; Sys 0
- UCCACGACUG (pool 0.275): IR 0.0837; LM 0; Sys 0.00684
- UCAUCGACUG (pool 0.235): IR 0.0893; LM 0; Sys 0
- UGUGCGAGGG (pool 0.131): IR 0.0844; LM 0; Sys 0
- UAUACGCAAG (pool 0.118): IR 0.668; LM 0.0323; Sys 0.0337
- UCGCCGGCCG (pool 0.196): IR 0.106; LM 0; Sys 0
- UCAACGAGAG (pool 0.288): IR 0.593; LM 0.0662; Sys 0

Extract of 3 entries:

sequence,pool,IR,LM,Sys
UUCGCGCGCG,0.183,0.0897,0,0
UAGCCGCCAG,0.222,0.143,0.0444,0.00684
UACGCGUUGG,0.183,0.107,0,0